Results of unrelated studies side by side (data: NIAID ChemDB).

Shared fields: tests in culture; species: HIV-1; method: p24 / ELISA; endpoint: EC50

ECn: concentration that inhibits the pathogen or its effect by n%. Lines come from different laboratories, so protocols vary. Two numbers with a dash give a range or band. An empty or dashed field is not shown.

compound	strain or isolate	changes	cells	value
CC/C=C\C/C=C\C/C=C\C/C=C\C/C=C\C/C=C\CCC(=O)O[C@@]12[C@H](O)[C@@H](C)[C@@]3(O)[C@@H](C=C(CO)C[C@]4(O)C(=O)C(C)=C[C@@H]34)[C@@H]1C2(C)C	IIIB		C8166	0.0951 µM
CC(C)OC(=O)OCOP(=O)(CO[C@H](C)Cn1cnc2c(N)ncnc21)OCOC(=O)OC(C)C	A17		C8166	0.01504 µM
CC(C)S(=O)(=O)N1CCN([C@H](CN[C@]23CC[C@@H](C4(C)CC4)[C@@H]2[C@H]2CC[C@@H]4[C@@]5(C)CC[C@H](OC(=O)[C@H]6C[C@@H](C(=O)O)C6(C)C)C(C)(C)[C@@H]5CC[C@@]4(C)[C@]2(C)CC3)[C@@H](C)O)CC1	NL4-3	V7A	MT-4	<0.05 µM
CC1=C[C@H]2[C@@]3(O)[C@H](C)[C@@H](OC(=O)/C=C/c4ccccc4)[C@]4(OC(=O)/C=C/c5ccccc5)[C@H]([C@@H]3C=C(CO)C[C@]2(O)C1=O)C4(C)C	IIIB		C8166	0.1236 µM
CCC(=O)C1=C(Cc2ccccc2)NC(=O)N[C@H]1c1ccc(O)c(Cl)c1			CEM	>5 µM
COC(=O)c1cc2c(c(OC)c1-c1ccc(N(C)C)cc1)OCO2	MN		C8166	0.97 µg/mL
CC1=C(C(=O)OCC2CCCCC2)C(c2cccnc2)NC(=O)N1			CEM	1–5 µM
CC1=C[C@H]2[C@@]3(O)[C@H](C)[C@@H](OC(=O)/C=C/c4ccc(F)cc4)[C@]4(OC(=O)CCCCCBr)[C@H]([C@@H]3C=C(CO)C[C@]2(O)C1=O)C4(C)C	IIIB		C8166	0.154 µM
Cc1cc(C)cc(Cc2c(I)c(=O)[nH]c(=O)n2COCc2ccccc2)c1	A17	K103N/Y181C	TZM-bl	0.122 µM
CC(C)C1=C2[C@H]3CC[C@@H]4[C@@]5(C)CC[C@H](OC(=O)[C@H]6C[C@@H](C(=O)O)C6(C)C)C(C)(C)[C@@H]5CC[C@@]4(C)[C@]3(C)CC[C@@]2(CC(=O)NC2(CNC(=O)c3ccc(Cl)cc3)CCCC2)CC1=O	92HT599		MT-2	<1 µM
CCCOC(=O)c1ccc(C2NC(=O)NC(CC)=C2C(=O)OCC2CCCCC2)cc1			CEM	≤1 µM
CC(=O)O[C@@]12[C@H](OC(=O)CCCCCCCBr)[C@@H](C)[C@@]3(O)[C@@H](C=C(CO)C[C@]4(O)C(=O)C(C)=C[C@@H]34)[C@@H]1C2(C)C	IIIB		C8166	0.0335 µM
CCC(=O)C1=C(CCC2CCCC2)NC(=O)NC1c1ccc(O)c(Cl)c1			CEM	>5 µM
CC1([C@@H]2CC[C@]3(NC[C@H](CF)N4CCS(=O)(=O)CC4)CC[C@]4(C)[C@H](CC[C@@H]5[C@@]6(C)CC[C@H](OC(=O)[C@H]7C[C@@H](C(=O)O)C7(C)C)C(C)(C)[C@@H]6CC[C@]54C)[C@@H]23)CC1	NL4-3		MT-4	<0.01 µM
CCCC(=O)O[C@@]12[C@H](OC(=O)/C=C/c3ccc(O)c(OC)c3)[C@@H](C)[C@@]3(O)[C@@H](C=C(CO)C[C@]4(O)C(=O)C(C)=C[C@@H]34)[C@@H]1C2(C)C	IIIB		C8166	0.0957 µM
C[C@@H](O)[C@@H](CN[C@]12CC[C@@H](C3(C)CC3)[C@@H]1[C@H]1CC[C@@H]3[C@@]4(C)CC[C@H](OC(=O)[C@H]5C[C@@H](C(=O)O)C5(C)C)C(C)(C)[C@@H]4CC[C@@]3(C)[C@]1(C)CC2)N1CCS(=O)(=O)CC1	NL4-3		MT-4	<0.01 µM
CC(C)C1=C2[C@H]3CC[C@@H]4[C@@]5(C)CC[C@H](OC(=O)[C@H]6C[C@@H](C(=O)O)C6(C)C)C(C)(C)[C@@H]5CC[C@@]4(C)[C@]3(C)CC[C@@]2(CC(=O)NC(CN)CNC(=O)c2ccc(Cl)cc2)CC1=O	92HT599		MT-2	<1 µM
CCC(=O)C1=C(CCc2ccccc2)NC(=O)NC1c1ccc(O)c(Cl)c1			CEM	>5 µM
CC(C)C1=C2[C@H]3CC[C@@H]4[C@@]5(C)CC[C@H](OC(=O)[C@H]6C[C@@H](C(=O)O)C6(C)C)C(C)(C)[C@@H]5CC[C@@]4(C)[C@]3(C)CC[C@@]2(CC(=O)NCC(C)(C)NC(=O)c2ccc(CN3CCOCC3)cn2)CC1=O	92HT599		MT-2	<1 µM
CCC1=C(C(=O)c2ccccc2)C(c2cccc(OC)c2)NC(=O)N1			CEM	>5 µM
CC(C)C1=C2[C@H]3CC[C@@H]4[C@@]5(C)CC[C@H](OC(=O)[C@H]6C[C@@H](C(=O)O)C6(C)C)C(C)(C)[C@@H]5CC[C@@]4(C)[C@]3(C)CC[C@@]2([C@@H](O)CNC(=O)C(C)(C)NC(=O)c2nc3ccccc3[nH]2)CC1=O	92HT599		MT-2	<1 µM
COc1ccc(/C=C/C(=O)O[C@@H]2[C@@H](C)[C@@]3(O)[C@@H](C=C(CO)C[C@]4(O)C(=O)C(C)=C[C@@H]34)[C@@H]3C(C)(C)[C@]23OC(C)=O)cc1	IIIB		C8166	0.047 µM
COP(=O)(c1cc(C)cc(CCC#N)c1)c1c(C(N)=O)[nH]c2ccc(Cl)c(F)c12	NL4-3	Y181C	MT-4	0.0039 µM
CCC1=C(c2nc(C3CCCCC3)cs2)C(c2ccc(O)cc2)NC(=O)N1			CEM	≤1 µM
CC(C)C1=C2[C@H]3CC[C@@H]4[C@@]5(C)CC[C@H](OC(=O)[C@H]6C[C@@H](C(=O)O)C6(C)C)C(C)(C)[C@@H]5CC[C@@]4(C)[C@]3(C)CC[C@@]2([C@@H](O)CNC(=O)CN2CCCCC2)CC1=O	92HT599		MT-2	<1 µM
CC/C=C\C/C=C\C/C=C\C/C=C\C/C=C\CCCC(=O)O[C@@H]1[C@@H](C)[C@@]2(O)[C@@H](C=C(CO)C[C@]3(O)C(=O)C(C)=C[C@@H]23)[C@@H]2C(C)(C)[C@]12OC(=O)CCC/C=C\C/C=C\C/C=C\C/C=C\C/C=C\CC	IIIB		C8166	1.28 µM
CC(=O)Oc1cccc(C2NC(=O)NC(C)=C2C(=O)OCC2CCCCC2)c1			CEM	≤1 µM
CC1([C@@H]2CC[C@]3(NC[C@H](CO[Si](C)(C)C(C)(C)C)N4CCS(=O)(=O)CC4)CC[C@]4(C)[C@H](CC[C@@H]5[C@@]6(C)CC[C@H](OC(=O)[C@H]7C[C@@H](C(=O)O)C7(C)C)C(C)(C)[C@@H]6CC[C@]54C)[C@@H]23)CC1	NL4-3		MT-4	>0.05 µM
CCC1=C(C(=O)OCC2CCCCC2)C(c2ccc([N+](=O)[O-])c(O)c2)NC(=O)N1			CEM	≤1 µM
CC(C)C1=C2[C@H]3CC[C@@H]4[C@@]5(C)CC[C@H](OC(=O)[C@H]6C[C@@H](C(=O)O)C6(C)C)C(C)(C)[C@@H]5CC[C@@]4(C)[C@]3(C)CC[C@@]2(CC(=O)NCC2(NC(=O)c3ccc(Cl)cc3)CCCC2)CC1=O	92HT599		MT-2	<1 µM
C=C(C)[C@@H]1CC[C@]2(NC[C@H]([C@@H](C)OC(=O)COCCOC)N3CCS(=O)(=O)CC3)CC[C@]3(C)[C@H](CC[C@@H]4[C@@]5(C)CC[C@H](OC(=O)[C@H]6C[C@@H](C(=O)O)C6(C)C)C(C)(C)[C@@H]5CC[C@]43C)[C@@H]12	NL4-3		MT-4	<0.01 µM
CC(C)C1=C2[C@H]3CC[C@@H]4[C@@]5(C)CC[C@H](OC(=O)[C@H]6C[C@@H](C(=O)O)C6(C)C)C(C)(C)[C@@H]5CC[C@@]4(C)[C@]3(C)CC[C@@]2(CCNC(=O)c2ccc(N)nc2)CC1=O	92HT599		MT-2	<1 µM
CCCCCCCCC(=O)O[C@@]12[C@H](OC(=O)/C=C/c3ccc(Cl)cc3)[C@@H](C)[C@@]3(O)[C@@H](C=C(CO)C[C@]4(O)C(=O)C(C)=C[C@@H]34)[C@@H]1C2(C)C	IIIB		C8166	0.0034 µM

Again, the opening 4 rows:

compound | strain or isolate | changes | cells | value
CC/C=C\C/C=C\C/C=C\C/C=C\C/C=C\C/C=C\CCC(=O)O[C@@]12[C@H](O)[C@@H](C)[C@@]3(O)[C@@H](C=C(CO)C[C@]4(O)C(=O)C(C)=C[C@@H]34)[C@@H]1C2(C)C | IIIB |  | C8166 | 0.0951 µM
CC(C)OC(=O)OCOP(=O)(CO[C@H](C)Cn1cnc2c(N)ncnc21)OCOC(=O)OC(C)C | A17 |  | C8166 | 0.01504 µM
CC(C)S(=O)(=O)N1CCN([C@H](CN[C@]23CC[C@@H](C4(C)CC4)[C@@H]2[C@H]2CC[C@@H]4[C@@]5(C)CC[C@H](OC(=O)[C@H]6C[C@@H](C(=O)O)C6(C)C)C(C)(C)[C@@H]5CC[C@@]4(C)[C@]2(C)CC3)[C@@H](C)O)CC1 | NL4-3 | V7A | MT-4 | <0.05 µM
CC1=C[C@H]2[C@@]3(O)[C@H](C)[C@@H](OC(=O)/C=C/c4ccccc4)[C@]4(OC(=O)/C=C/c5ccccc5)[C@H]([C@@H]3C=C(CO)C[C@]2(O)C1=O)C4(C)C | IIIB |  | C8166 | 0.1236 µM